Test system: PXB-cells
Test: hAlb and total DNA of HBV-infected PXB-cells
Format: cell-based
Conditions: Day 27

C=C1[C@H](CO)[C@@H](O)C[C@@H]1n1cnc2c(=O)[nH]c(N)nc21 [Entecavir]
Extracellular hAlb (Entecavir 9.8 pM): 90.9 µg/mL | Extracellular hAlb (Entecavir 19.5 pM): 91.2 µg/mL | Extracellular hAlb (Entecavir 39.1 pM): 92.8 µg/mL | Extracellular hAlb (Entecavir 78.1 pM): 92.1 µg/mL | Extracellular hAlb (Entecavir 156.3 pM): 92.2 µg/mL | Extracellular hAlb (Entecavir 312.5 pM): 94.6 µg/mL | Extracellular hAlb (Entecavir 625 pM): 95.2 µg/mL | Extracellular hAlb (Entecavir 1.25 nM): 92.0 µg/mL | Extracellular hAlb (Entecavir 5 nM): 93.7 µg/mL | Extracellular hAlb (Entecavir 10 nM): 86.2 µg/mL

COc1cc2c(c(OC)c1OC)-c1ccc(OC)c(=O)cc1[C@@H](NC(C)=O)CC2 [Colchicine, N [5,6,7,9-tetrahydro-1,2,3,10-tetratmethoxy 9-oxobenzo[a]heptalen-7-yl], (S)-acetamide]
Extracellular hAlb (Colchicine 1 nM): 85.3 µg/mL | Extracellular hAlb (Colchicine 2 nM): 89.3 µg/mL | Extracellular hAlb (Colchicine 3.9 nM): 85.7 µg/mL | Extracellular hAlb (Colchicine 7.8 nM): 84.6 µg/mL | Extracellular hAlb (Colchicine 15.6 nM): 71.2 µg/mL | Extracellular hAlb (Colchicine 31.3 nM): 20.7 µg/mL | Extracellular hAlb (Colchicine 62.5 nM): <5.0 µg/mL | Extracellular hAlb (Colchicine 125 nM): <5.0 µg/mL | Extracellular hAlb (Colchicine 250 nM): <5.0 µg/mL | Extracellular hAlb (Colchicine 500 nM): <5.0 µg/mL | Extracellular hAlb (Colchicine 1000 nM): <5.0 µg/mL

Source: patent US20220257540A1, “COMPOSITIONS AND METHODS FOR TREATMENT OF HEPATITIS B VIRUS INFECTION” (ANHUI RONGHANG BIOTECH DEVELOPMENT CO., LTD., priority 2019, published 2022)
